Pooled drug test results. Numbers come from NIAID ChemDB, via PubChem.

Common to all: growth or infection tests; agent: Cytomegalovirus; measure: EC50

Conditions beyond the fields shown may differ between rows.

CC1(C)[C@@H](CO)CC[C@@]1(C)Cn1cc(Br)c(=O)[nH]c1=O ; strain or isolate: AD169 ; cells: HEL ; read by: cytopathic effect ; result: >50 µg/mL
Nc1nc2c(ncn2COC(CO)CO)c(=O)[nH]1 ; strain or isolate: DAVIS ; cells: HEL ; read by: plaque count ; result: 9.1 µM
Nc1nc2c(ncn2COC(CO)CO)c(=O)[nH]1 ; strain or isolate: AD169 ; cells: MRC-5 ; result: 11.8 µM
Cc1ccc([N+](=O)[O-])cc1CS(=O)(=O)c1cccc[n+]1[O-] ; cells: HEL ; read by: cytopathic effect ; result: >50 µg/mL
C[C@@]1(O)[C@@H](CO)O[C@@H](n2cnc3c(N)ncnc32)[C@@H]1O ; strain or isolate: DAVIS ; cells: VERO ; read by: cytopathic effect ; result: >5 µg/mL
OC[C@H]1O[C@@H](c2cc(C(O)C(I)I)c(F)cc2F)C[C@@H]1O ; strain or isolate: AD169 ; cells: HEL ; read by: cytopathic effect ; result: >200 µg/mL
O=C(CCCCCCC(=O)Nc1cc(S(=O)(=O)O)cc2cc(S(=O)(=O)O)cc(O)c12)Nc1cc(S(=O)(=O)O)cc2cc(S(=O)(=O)O)cc(O)c12 ; strain or isolate: AD169 ; cells: MRC-5 ; read by: plaque count ; result: 12 µM
OC[C@H]1O[C@@H](c2cc(C(O)CI)c(F)cc2F)C[C@@H]1O ; strain or isolate: DAVIS ; cells: HEL ; read by: cytopathic effect ; result: >200 µg/mL
O=C(CCCCCCCCC(=O)Nc1cc(S(=O)(=O)O)cc2cc(S(=O)(=O)O)cc(O)c12)Nc1cc(S(=O)(=O)O)cc2cc(S(=O)(=O)O)cc(O)c12 ; strain or isolate: Isolate T-1082 ; cells: MRC-5 ; read by: plaque count ; result: 18 µM
c1ccc(COc2cccnc2SCc2ccccc2)cc1 ; cells: HEL ; read by: cytopathic effect ; result: >2 µg/mL
CC1(C)[C@@H](CO)CC[C@@]1(C)Cn1nnc2c(Cl)ncnc21 ; strain or isolate: DAVIS ; cells: HEL ; read by: cytopathic effect ; result: >50 µg/mL
CN1c2ccc([N+](=O)[O-])cc2C(C)(C)C12C=Cc1ccccc1O2 ; strain or isolate: DAVIS ; cells: HEL ; read by: plaque count ; result: >49.8 µM
CC1(C)[C@@H](CCO)C[C@H]1n1nnc2c(=O)[nH]c(N)nc21 ; strain or isolate: AD169 ; cells: HEL ; read by: plaque count ; result: >50 µg/mL
O=C(O)c1ccc(CS(=O)(=O)c2cccc[n+]2[O-])cc1 ; cells: HEL ; read by: cytopathic effect ; result: >50 µg/mL
CC1(C)[C@@H](CCO)C[C@H]1n1cnc2c(N)ncnc21 ; strain or isolate: DAVIS ; cells: HEL ; read by: plaque count ; result: >20 µg/mL
N#Cc1ccc(CS(=O)(=O)c2cccc[n+]2[O-])cc1 ; cells: HEL ; read by: cytopathic effect ; result: >20 µg/mL
CC1(C)[C@@H](CO)CC[C@@]1(C)Cn1cnc2c(Cl)ncnc21 ; strain or isolate: DAVIS ; cells: HEL ; read by: cytopathic effect ; result: >50 µg/mL
Cc1ccc(C)c(CS(=O)(=O)c2ncccc2O)c1 ; cells: HEL ; read by: cytopathic effect ; result: >50 µg/mL
Nc1nc2c(ncn2COCCO)c(=O)[nH]1 ; strain or isolate: DAVIS ; cells: HEL ; read by: cytopathic effect ; result: 20 µg/mL
Nc1ccn(C[C@@H](CO)OCP(=O)(O)O)c(=O)n1 ; strain or isolate: DAVIS ; cells: HEL ; read by: cytopathic effect ; result: 0.4 µg/mL
Cc1ccc(C)c(CSc2ccc(Cl)c[n+]2[O-])c1 ; cells: HEL ; read by: cytopathic effect ; result: >50 µg/mL
Nc1nc2c(ncn2CCC(CO)CO)c(=O)[nH]1 ; strain or isolate: AD169 ; cells: MRC-5 ; read by: plaque count ; result: 52 µg/mL
O=S(Cc1ccc(F)cc1)c1cccc[n+]1[O-] ; cells: HEL ; read by: cytopathic effect ; result: >50 µg/mL
COc1ccc2c(c1)C=CC1(O2)N(C)c2ccccc2C1(C)C ; strain or isolate: DAVIS ; cells: HEL ; read by: plaque count ; result: >10.4 µM
c1ccc(CSc2ccccn2)cc1 ; cells: HEL ; read by: cytopathic effect ; result: >50 µg/mL
Nc1nc2c(ncn2CC(CO)OCP(=O)(O)O)c(=O)[nH]1 ; strain or isolate: DAVIS ; cells: HEL ; read by: cytopathic effect ; result: 1 µg/mL
COc1ccc2c(c1)OC1(C=C2)N(C)c2ccccc2C1(C)C ; strain or isolate: AD169 ; cells: HEL ; read by: plaque count ; result: >10.4 µM
Cc1ccc(C)c(C(CO)S(=O)(=O)c2ccccn2)c1 ; cells: HEL ; read by: cytopathic effect ; result: >50 µg/mL
O=c1[nH]c(=O)n([C@H]2C[C@H](O)[C@@H](CO)O2)cc1/C=C/Br ; strain or isolate: DAVIS ; cells: HEL ; read by: cytopathic effect ; result: 300 µg/mL
O=S(=O)(O)c1cc(O)c2c(NS(=O)(=O)c3ccc(-c4ccc(S(=O)(=O)Nc5cc(S(=O)(=O)O)cc6cc(S(=O)(=O)O)cc(O)c56)cc4)cc3)cc(S(=O)(=O)O)cc2c1 ; strain or isolate: Isolate T-1082 ; cells: MRC-5 ; read by: plaque count ; result: 25 µM
CCCCCCCCCCCC(c1cc(C)ccc1C)S(=O)(=O)c1cccc[n+]1[O-] ; cells: HEL ; read by: cytopathic effect ; result: 0.56 µg/mL
O=C(NC(c1ccccc1)c1ccccc1)[C@H](Cc1ccccc1)NC(=O)n1nnc2ccccc21 ; strain or isolate: DAVIS ; cells: HEL ; read by: plaque count ; result: >3.2 µg/mL
O=c1ccn([C@@H]2O[C@H](CO)[C@](O)(C(F)(F)F)[C@H]2O)c(=O)[nH]1 ; strain or isolate: DAVIS ; cells: VERO ; read by: cytopathic effect ; result: >50 µg/mL
COc1ccc2c(c1)OC1(C=C2)N(C)c2ccc(Cl)cc2C1(C)C ; strain or isolate: AD169 ; cells: HEL ; read by: plaque count ; result: 12.6 µM
COc1cc(CS(=O)c2cccc[n+]2[O-])cc(OC)c1OC ; cells: HEL ; read by: cytopathic effect ; result: >50 µg/mL
Nc1nc2c(ncn2COC(CO)CO)c(=O)[nH]1 ; strain or isolate: DAVIS ; cells: HEL ; read by: plaque count ; result: 0.5 µg/mL
CC(C)C[C@H](NC(=O)n1nnc2ccccc21)C(=O)NC1CCCC1 ; strain or isolate: AD169 ; cells: HEL ; read by: plaque count ; result: >3.2 µg/mL
CN1c2ccccc2C(C)(C)C12C=Nc1c(ccc3ccccc13)O2 ; strain or isolate: AD169 ; cells: HEL ; read by: plaque count ; result: >9.8 µM
Nc1ncnc2c1ncn2C[C@H]1COP(=O)(O)CO1 ; strain or isolate: AD169 ; cells: HEL ; read by: cytopathic effect ; result: 0.7 µg/mL
Cc1ccc(C)c(C(c2ccccc2)S(=O)(=O)c2cccc[n+]2[O-])c1 ; cells: HEL ; read by: cytopathic effect ; result: 20 µg/mL
Nc1nc(=O)n([C@@H]2O[C@H](CO)[C@@H](O)[C@@H]2F)cc1I ; strain or isolate: DAVIS ; cells: HEL ; read by: plaque count ; result: 0.6 µg/mL
CC1(C)[C@@H](CO)CC[C@@]1(C)Cn1nnc2c(N)ncnc21 ; strain or isolate: AD169 ; cells: HEL ; read by: cytopathic effect ; result: >50 µg/mL
CC(C)C[C@H](NC(=O)n1nnc2ccccc21)C(=O)NC(c1ccccc1)c1ccccc1 ; strain or isolate: DAVIS ; cells: HEL ; read by: plaque count ; result: >16 µg/mL
CC1(C)[C@@H](CCO)C[C@H]1n1cnc2c(=O)[nH]c(N)nc21 ; strain or isolate: AD169 ; cells: HEL ; read by: plaque count ; result: >50 µg/mL
N#C/C(=C/c1ccc(Cl)cc1Cl)S(=O)(=O)c1cccc[n+]1[O-] ; cells: HEL ; read by: cytopathic effect ; result: >5 µg/mL
Nc1nc2c(ncn2COC2COP(=O)(O)OC2)c(=O)[nH]1 ; strain or isolate: AD169 ; cells: HEL ; read by: plaque count ; result: 0.8 µg/mL
CN1c2ccc(Cl)cc2C(C)(C)C12C=Nc1c(ccc3ccccc13)O2 ; strain or isolate: DAVIS ; cells: HEL ; read by: plaque count ; result: >44 µM
CC(C)CS[C@H]1C[C@@H](n2cnc3c(N)ncnc32)[C@H](O)[C@@H]1O ; strain or isolate: DAVIS ; cells: HEL ; read by: cytopathic effect ; result: >200 µg/mL
CC(C)C[C@H](NC(=O)n1nnc2ccccc21)C(=O)NC1CCCCC1 ; strain or isolate: DAVIS ; cells: HEL ; read by: plaque count ; result: >16 µg/mL

Repeating the final 4 entries:

compound | strain or isolate | cells | read by | result
Nc1nc2c(ncn2COC2COP(=O)(O)OC2)c(=O)[nH]1 | AD169 | HEL | plaque count | 0.8 µg/mL
CN1c2ccc(Cl)cc2C(C)(C)C12C=Nc1c(ccc3ccccc13)O2 | DAVIS | HEL | plaque count | >44 µM
CC(C)CS[C@H]1C[C@@H](n2cnc3c(N)ncnc32)[C@H](O)[C@@H]1O | DAVIS | HEL | cytopathic effect | >200 µg/mL
CC(C)C[C@H](NC(=O)n1nnc2ccccc21)C(=O)NC1CCCCC1 | DAVIS | HEL | plaque count | >16 µg/mL

ECn: concentration that inhibits the pathogen or its effect by n%.